The data set has as its system 5F-Trp-HpNikR. As to the kind of experiment: 19F-NMR. Conditions: Ni(II) 1.2 eq per monomer, recombinant protein.

Construct, isoform or probe ends are uncertain for at least one entry.

“ATATAACACTAATTCATTTTAAATAATAATTA (double strand) [ureA (32 bp, unlabeled)]”: where the note is “asymmetric cis state”, the binding result is on record as “binds”.
As for “ATATATTATTAATTCATTTTAAATAATAATTA (double strand) [ureA-perf (32 bp, unlabeled)]”, the binding result (symmetric cis state) is recorded as “binds”.
